Laboratory results taken from ChEMBL document CHEMBL3286196 (J Med Chem, 2014).
Active and inactive are the calls of the source. The rule behind the calls is not given here.

The chains behind the UniProt entries cited, without tags or fusion partners.
UniProt Q16881, whole entry, looked up: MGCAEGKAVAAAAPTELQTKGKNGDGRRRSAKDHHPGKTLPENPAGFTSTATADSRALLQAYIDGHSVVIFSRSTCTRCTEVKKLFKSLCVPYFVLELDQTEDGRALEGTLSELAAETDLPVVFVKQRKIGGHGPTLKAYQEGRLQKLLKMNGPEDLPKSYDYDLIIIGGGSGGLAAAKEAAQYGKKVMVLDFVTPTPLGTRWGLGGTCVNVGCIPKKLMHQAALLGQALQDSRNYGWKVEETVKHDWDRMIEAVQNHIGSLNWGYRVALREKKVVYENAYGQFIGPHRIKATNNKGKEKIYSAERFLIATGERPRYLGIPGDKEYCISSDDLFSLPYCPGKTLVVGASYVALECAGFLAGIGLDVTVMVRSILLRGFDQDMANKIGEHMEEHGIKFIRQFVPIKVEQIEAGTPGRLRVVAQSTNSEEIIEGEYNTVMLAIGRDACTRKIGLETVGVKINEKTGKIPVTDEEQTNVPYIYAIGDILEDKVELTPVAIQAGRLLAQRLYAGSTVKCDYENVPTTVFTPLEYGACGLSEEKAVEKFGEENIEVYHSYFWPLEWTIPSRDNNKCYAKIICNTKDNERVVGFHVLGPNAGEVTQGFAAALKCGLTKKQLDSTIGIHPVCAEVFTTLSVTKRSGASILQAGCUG
UniProt Q9NNW7, whole entry, looked up: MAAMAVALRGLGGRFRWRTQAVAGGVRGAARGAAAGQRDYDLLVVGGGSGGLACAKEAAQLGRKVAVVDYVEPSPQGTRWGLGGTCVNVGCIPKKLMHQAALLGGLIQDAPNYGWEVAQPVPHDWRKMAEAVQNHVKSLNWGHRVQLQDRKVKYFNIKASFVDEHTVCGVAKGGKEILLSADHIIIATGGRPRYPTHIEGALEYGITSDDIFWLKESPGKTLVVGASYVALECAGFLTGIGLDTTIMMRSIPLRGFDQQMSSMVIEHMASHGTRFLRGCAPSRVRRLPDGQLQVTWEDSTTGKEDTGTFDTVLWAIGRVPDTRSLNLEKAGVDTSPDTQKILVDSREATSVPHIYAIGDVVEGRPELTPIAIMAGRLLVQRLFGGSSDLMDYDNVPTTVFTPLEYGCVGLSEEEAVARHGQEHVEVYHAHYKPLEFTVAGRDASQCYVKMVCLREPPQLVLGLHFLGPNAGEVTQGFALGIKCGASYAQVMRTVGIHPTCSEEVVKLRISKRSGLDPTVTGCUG
UniProt Q86VQ6, whole entry, looked up: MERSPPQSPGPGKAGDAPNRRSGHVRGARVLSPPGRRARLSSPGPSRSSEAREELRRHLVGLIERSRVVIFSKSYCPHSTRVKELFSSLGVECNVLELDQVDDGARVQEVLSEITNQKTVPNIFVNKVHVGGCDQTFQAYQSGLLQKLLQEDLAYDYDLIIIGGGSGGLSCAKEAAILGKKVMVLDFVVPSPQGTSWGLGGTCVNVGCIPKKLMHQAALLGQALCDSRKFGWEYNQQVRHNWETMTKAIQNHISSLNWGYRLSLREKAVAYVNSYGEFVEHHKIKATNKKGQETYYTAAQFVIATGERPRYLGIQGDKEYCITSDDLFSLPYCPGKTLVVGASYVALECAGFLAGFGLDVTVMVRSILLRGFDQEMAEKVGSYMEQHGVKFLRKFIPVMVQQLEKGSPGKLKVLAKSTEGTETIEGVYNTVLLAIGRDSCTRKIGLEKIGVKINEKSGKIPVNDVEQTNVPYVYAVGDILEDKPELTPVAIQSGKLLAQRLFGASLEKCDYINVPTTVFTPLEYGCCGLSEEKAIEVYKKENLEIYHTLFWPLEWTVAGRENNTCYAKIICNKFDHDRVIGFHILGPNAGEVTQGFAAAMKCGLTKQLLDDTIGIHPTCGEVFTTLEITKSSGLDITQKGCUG

Key:
Conditions in all cases: HL-60
[1] = molecular target: T1, Thioredoxin reductase (Homo sapiens) (UniProt Q16881+Q9NNW7+Q86VQ6); experiment: Inhibition of TrxR in human HL60 cells assessed as cell death after 48 hrs by trypan blue exclusion assay in presence of vitamin C antioxidant
[2] = molecular target: T1, Thioredoxin reductase (Homo sapiens); experiment: Inhibition of TrxR in human HL60 cells assessed as cell death after 48 hrs by trypan blue exclusion assay in presence of 0.1 to 2 mM NAC thiol antioxidant
[3] = molecular target: T1, Thioredoxin reductase (Homo sapiens); experiment: Inhibition of TrxR in human HL60 cells assessed as cell death after 48 hrs by trypan blue exclusion assay in presence of vitamin E antioxidant

Nc1ccc([As]2SCCCS2)cc1
inhibition [1]: Active | inhibition [2]: inactive | inhibition [3]: Active
